# Reference: paper PMC11236705 (2024)
# T1: Clostridium perfringens enterotoxin (CpE) (Clostridium perfringens, UniProt P01558 1-319)
# T1 chain: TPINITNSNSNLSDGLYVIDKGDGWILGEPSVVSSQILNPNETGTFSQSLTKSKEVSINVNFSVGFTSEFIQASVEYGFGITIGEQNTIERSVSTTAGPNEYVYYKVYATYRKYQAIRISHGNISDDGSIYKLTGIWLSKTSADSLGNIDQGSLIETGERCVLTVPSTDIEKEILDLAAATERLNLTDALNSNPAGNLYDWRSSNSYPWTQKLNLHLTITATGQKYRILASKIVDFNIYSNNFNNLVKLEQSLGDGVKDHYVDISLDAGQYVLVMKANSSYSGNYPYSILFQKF
# Biological target: T1, Clostridium perfringens enterotoxin …
# Assay: BLI
row,Binder,Kd
1,"CLN4_20, soluble analogue of human claudin-4 (other) MSSLETFREARRLAREGLELVREAARLPMWRVTAFIGSNIVTSQTIWEGLWMNCVVQSTGQMQCKVYDSLLALPEDLRRARESFERAIEVAEKALELLEIGDPDSDAIEDEEERLQTIHEAGELLLKAAELAREPTEAIADRIIQDFYNPLVASGQKREMGASLALARRGAELLEEAGRKLLGLEGGSLEHHHHHH",300 nM
2,"CLN1_18, soluble analogue of human claudin-1 (other) MEKEKRIKEALETAKKGLKLAEEAYRNPQWRIYSYAGDNIVTAQAMYEGLWMSCVSQSTGQIQCKVFDSLLNLSSTLQETRKKVEEGIELGKKAIEIAEEGDPRNPKYKDNPELQLELIKKGAELFLKAGELVREAVETYGARIEQEFNDPMTPVNARYEFGQALETGRKAAELIIRGAEGLLNTTEE",3200 nM
